Measured values from several laboratories, pooled; numbers as filed in NIAID ChemDB.

Common to all: tests in culture; agent: HIV-1; read by: p24; endpoint: EC50

Two numbers with a dash give a range or band. Blank or dashed fields: not listed here. ECn is the concentration giving n% inhibition of infection, replication or growth. Neighbouring rows are from separate reports.

compound	cell line	mutations	strain	result
CC(C)CN(CC(O)CN(CC(C)C)S(=O)(=O)c1ccc([N+](=O)[O-])cc1)S(=O)(=O)c1ccccc1	CEM		IIIB	<1 µM
CN(C)C(=O)C(=O)N(C)C1CN(S(C)(=O)=O)CCn2c1nc(C(=O)NCc1ccc(F)cc1)c(O)c2=O	MT-4			<1 µM
COc1ccc(S(=O)(=O)N(CC(C)C)C[C@@H](O)CCN(CC2CCCC2)S(=O)(=O)CC2NC(=O)NC2=O)cc1	CEM		IIIB	<1 µM
Cn1nnnc1CN1CCn2c(nc(C(=O)NCc3ccc(F)cc3)c(O)c2=O)C1(C)C	MT-4			<1 µM
Cc1cn([C@H]2C=C[C@@H](CO)O2)c(=O)[nH]c1=O	MT-4		NL-XM WT	<0.3 µM
CC(C)C1=C2[C@H]3CC[C@@H]4[C@@]5(C)CC[C@H](OC(=O)C6C[C@@H](C(=O)O)C6(C)C)C(C)(C)[C@@H]5CC[C@@]4(C)[C@]3(C)CC[C@@]2(NC(=O)C(C)(C)NC(=O)c2csc(N)n2)CC1=O	MT-4		NL4-3	>0.01 µM
Nc1nc(=O)n([C@H]2C=C[C@@H](CO)O2)cc1F	MT-4	RT-A62V V75I F77C F116Y Q151M	XM-Q151M	<32 µM
Cc1cc(CN2CCn3c(nc(C(=O)NCc4ccc(F)cc4)c(O)c3=O)C2(C)C)no1	MT-4			<1 µM
CC(C)C1=C2[C@H]3CC[C@@H]4[C@@]5(C)CC[C@H](OC(=O)C6C[C@@H](C(=O)O)C6(C)C)C(C)(C)[C@@H]5CC[C@@]4(C)[C@]3(C)CC[C@@]2(NC(=O)C(C)(C)NC(=O)c2ccc3ccccc3n2)CC1=O	MT-4		NL4-3	0.00501–0.01 µM
CCN1c2ncc(CCOc3ccc(-c4ccc(C(=O)O)cc4)c(C)c3)cc2C(=O)N(C)c2cccnc21	C8166		IIIB	0.01–0.05 µM
CC(=O)NC1CN(C)CCn2c1nc(C(=O)NCc1ccc(F)cc1)c(O)c2=O	MT-4			<50 µM
CCN1c2ncc(CCOc3ccc(-c4ccc(O)c(C(=O)O)c4)cc3C)cc2C(=O)N(C)c2cccnc21	C8166	RT-K103N Y181C		>0.05 µM
CC(C)=CCOc1cc(NC(=S)c2ccsc2C)ccc1Cl	CEM + CEM-SS	RT-A98G	NL4-3	0.009 µM
CCN1c2ncc(CCOc3ccc(-c4ccc(CC(=O)O)c(F)c4)cc3C)cc2C(=O)N(C)c2cccnc21	C8166		IIIB	<0.01 µM
CC1(C)c2nc(C(=O)NCc3ccc(F)cc3)c(O)c(=O)n2CCN1Cc1ncco1	MT-4			<1 µM
CCN1c2ncc(CCOc3ccc(-c4csc(N)n4)cc3C)cc2C(=O)N(C)c2cccnc21	C8166		IIIB	<0.01 µM
O=S(=O)(c1ccccc1)N(CC(O)CN(CC1CCCC1)S(=O)(=O)c1ccc(O)cc1)CC1CCCC1	CEM		IIIB	<1 µM
CCN1c2ncc(CCOc3ccc(-c4ccc(CC(=O)O)cc4)cc3)cc2C(=O)N(C)c2cccnc21	C8166	RT-K103N Y181C		>0.05 µM
Cc1cc(C(=O)NC(C)(C)C(=O)N[C@@]23CC[C@]4(C)[C@H](CC[C@@H]5[C@@]6(C)CC[C@H](OC(=O)C7C[C@@H](C(=O)O)C7(C)C)C(C)(C)[C@@H]6CC[C@]54C)C2=C(C(C)C)C(=O)C3)c(C)o1	MT-4		NL4-3	<0.005 µM
O=C(NC(Cc1ccccc1)C(=O)C(=O)C(=O)N(CC1CCCC1)S(=O)(=O)c1ccccc1)OC1COCOC1	CEM		IIIB	<1 µM
Clc1cc(CN2CCCNCCNCCCNCC2)cc(Cl)n1	MT-4		IIIB X4	1.2 µM
CC(C)CN(CC(O)Cn1ccnc1C(=O)NC(C)(C)C)S(=O)(=O)c1ccccc1	CEM		IIIB	<1 µM
O=C(O)c1cc(-n2cccc2)ccc1Cl	MT-2		IIIB	2.1 µM
CN(C)CC1c2nc(C(=O)NCc3ccc(F)cc3)c(O)c(=O)n2CCN1C	MT-4			1–10 µM
CC(C)[C@H](NC(=O)OCc1ccccn1)C(=O)N[C@@H](Cc1ccccc1)[C@@H](O)C[C@H](Cc1ccccc1)NC(=O)OCc1cccnc1	MT-4	PR-L10R M46I L63P	NL4-3	<0.8 µM
Cc1ccc(-c2ccc3c(c2)C=C(C(=O)Nc2ccc(C[N+](C)(C)C4CCOCC4)cc2)CCC3)cc1	PBMC		COT1 CLADE C	<1 µM
CC(C)CN(C[C@@H](O)[C@H](Cc1ccccc1)NC(=O)O[C@H]1CO[C@H]2OCC[C@H]21)S(=O)(=O)c1ccc2c(c1)OCO2	PHA-PBM		MDR/G	0.0034 µM
CCN1c2ncccc2NC(=O)c2cc(CCOc3ccc(-c4ccc(CC(=O)O)cc4)cc3C)cnc21	C8166	RT-K103N Y181C		0.01–0.05 µM
CC(C)C1=C2[C@H]3CC[C@@H]4[C@@]5(C)CC[C@H](OC(=O)C6C[C@@H](C(=O)O)C6(C)C)C(C)(C)[C@@H]5CC[C@@]4(C)[C@]3(C)CC[C@@]2(NC(=O)C(C)(C)NS(C)(=O)=O)CC1=O	MT-4	V7A	NL4-3	>0.05 µM
O=C(Nc1cscc1S(=O)(=O)c1ccccc1)C(=O)C(=O)N(CC1CCCC1)S(=O)(=O)c1ccccc1	CEM		IIIB	<1 µM

4 of the rows above, restated:

CN(C)CC1c2nc(C(=O)NCc3ccc(F)cc3)c(O)c(=O)n2CCN1C ; cell line: MT-4 ; result: 1–10 µM
CCN1c2ncc(CCOc3ccc(-c4ccc(CC(=O)O)c(F)c4)cc3C)cc2C(=O)N(C)c2cccnc21 ; cell line: C8166 ; strain: IIIB ; result: <0.01 µM
CC(C)C1=C2[C@H]3CC[C@@H]4[C@@]5(C)CC[C@H](OC(=O)C6C[C@@H](C(=O)O)C6(C)C)C(C)(C)[C@@H]5CC[C@@]4(C)[C@]3(C)CC[C@@]2(NC(=O)C(C)(C)NS(C)(=O)=O)CC1=O ; cell line: MT-4 ; mutations: V7A ; strain: NL4-3 ; result: >0.05 µM
Cc1cn([C@H]2C=C[C@@H](CO)O2)c(=O)[nH]c1=O ; cell line: MT-4 ; strain: NL-XM WT ; result: <0.3 µM